PubChem BioAssay AID1224833 – University of Georgia, 2016

- Purpose: 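Human genes whose knock-down alters rotavirus replication in monkey cells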 (primary screen)
- Cells: monkey MA104 kidney cells
- Reagent: siRNA pool against human genes, 50 nM
- Duration: 48 h knock-down before infection; read 24 h after infection
- Conditions: infection with rotavirus strain RV3 two days after transfection; infectious dose for this stage not given
- Measurement: 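z-score of rotavirus antigen signal per well, from a fluorescent immunoassay, relative to non-targeting control wells on the same plate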
- Scale: z-score vs non-targeting control: higher = more rotavirus replication than with non-targeting control
- Rule for the call: In these data the active calls have z-score vs non-targeting control at about -1 or lower, or at about 1 or higher
- Calls: active = z-score beyond 1 either way; inactive = z-score within 1 of zero
The whole screen tested about 12,000 reagents; shown is a part drawn at random. About 5,600 of them (46%) count as active. 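Active calls cover z-scores past 1 in both directions, so they include lowered as well as raised rotavirus replication.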 Unmarked entries are inactive.

{"target": "PIAS3", "z-score vs non-targeting control": -0.784}
{"target": "ADGRB3", "z-score vs non-targeting control": "-1.2 (active)"}
{"target": "UTF1", "z-score vs non-targeting control": "-1.61 (active)"}
{"target": "RNASE7", "z-score vs non-targeting control": "-1.01 (active)"}
{"target": "ARHGAP20", "z-score vs non-targeting control": -0.0814}
{"target": "RPS19", "z-score vs non-targeting control": -0.909}
{"target": "TUBGCP3", "z-score vs non-targeting control": -0.332}
{"target": "ELP6", "z-score vs non-targeting control": 0.511}
{"target": "FRS3", "z-score vs non-targeting control": -0.139}
{"target": "ROBO4", "z-score vs non-targeting control": 0.639}
{"target": "CCDC90B", "z-score vs non-targeting control": -0.308}
{"target": "CCL25", "z-score vs non-targeting control": "1.81 (active)"}
{"target": "CCDC125", "z-score vs non-targeting control": 0.204}
{"target": "KAT6A", "z-score vs non-targeting control": -0.93}
{"target": "HLCS", "z-score vs non-targeting control": "1.47 (active)"}
{"target": "OR10T2", "z-score vs non-targeting control": -0.59}
{"target": "TOX2", "z-score vs non-targeting control": 0.852}
{"target": "OR52E2", "z-score vs non-targeting control": 0.21}
{"target": "AMELY", "z-score vs non-targeting control": 0.467}

No new results follow: 3 of the entries above.
{"target": "ROBO4", "z-score vs non-targeting control": 0.639}
{"target": "CCDC90B", "z-score vs non-targeting control": -0.308}
{"target": "CCL25", "z-score vs non-targeting control": "1.81 (active)"}
